From patent US20240076299A1, “TUBERCULATIN ANALOGS AS ANTIVIRAL AGENTS” (priority 2020, published 2024)
For some of these results: The amount applied is not stated for every result.

Columns and labels:
[1] = tested on: VSV; format: cell-based, vesicular stomatitis virus; details: ratio CC50 / EC50
[2] = tested on: HIV; format: cell-based, HIV-1
[3] = tested on: AIV; format: cell-based, avian influenza virus (H5N1); details: ratio CC50 / EC50

Row | Structure (SMILES) | SI VSV [1] | increase of antiviral activity in comparison with unacetonized counterpart [2] | SI AIV [3]
1 | COc1cc2c(O[C@H]3OC[C@@]4(CO)OC(C)(C)O[C@@H]34)c3c(c(-c4ccc5c(c4)OCO5)c2cc1OC)C(=O)OC3 [Compound 10] | 266 | ~12 times | 536
2 | COc1cc2c(O[C@H]3OC[C@@]4(CO)OC(c5ccccc5)O[C@@H]34)c3c(c(-c4ccc5c(c4)OCO5)c2cc1OC)C(=O)OC3 (stereo partly shown) [Compound 18] | 85.9 |  | 295
3 | COc1cc2c(O[C@H]3OC[C@](O)(CO)[C@H]3O)c3c(c(-c4ccc5c(c4)OCO5)c2cc1OC)C(=O)OC3 [Compound 19] | 14.6 |  | 30.0
4 | COc1cc2c(O[C@@H]3OC[C@@]4(COC(C)=O)OC(c5ccccc5)O[C@@H]34)c3c(c(-c4ccc5c(c4)OCO5)c2cc1OC)C(=O)OC3 (stereo partly shown) [Compound 20] | 29.1 |  | 39.2
5 | COc1cc2c(O[C@H]3OC[C@@]4(COC(C)=O)OC(c5ccccc5)O[C@@H]34)c3c(c(-c4ccc5c(c4)OCO5)c2cc1OC)C(=O)OC3 (stereo partly shown) [Compound 21] | 7.8 |  | 14.9
6 | COc1cc2c(O[C@H]3OC[C@](O)(COC(C)=O)[C@H]3O)c3c(c(-c4ccc5c(c4)OCO5)c2cc1OC)C(=O)OC3 [Compound 23] | 127 |  | 528
7 | COc1cc2c(O[C@H]3OC[C@@]4(CN=[N+]=[N-])OC(C)(C)O[C@@H]34)c3c(c(-c4ccc5c(c4)OCO5)c2cc1OC)C(=O)OC3 [Compound 25] | 143 |  | 895
8 | COc1cc2c(O[C@H]3OC[C@@]4(CN)OC(C)(C)O[C@@H]34)c3c(c(-c4ccc5c(c4)OCO5)c2cc1OC)C(=O)OC3 [Compound 26] | 4.6 |  | 3.4
9 | COc1cc2c(O[C@H]3OC[C@@]4(COC(=O)c5ccccc5)OC(C)(C)O[C@@H]34)c3c(c(-c4ccc5c(c4)OCO5)c2cc1OC)C(=O)OC3 [Compound 27] | 18.2 |  | 22.4
10 | COc1cc2c(O[C@H]3OC[C@@]4(COC(=O)c5ccncc5)OC(C)(C)O[C@@H]34)c3c(c(-c4ccc5c(c4)OCO5)c2cc1OC)C(=O)OC3 [Compound 28] | 10.0 |  | 33.5
11 | COc1cc2c(O[C@H]3OC[C@@]4(COC(=O)c5cccnc5)OC(C)(C)O[C@@H]34)c3c(c(-c4ccc5c(c4)OCO5)c2cc1OC)C(=O)OC3 [Compound 29] | 24.3 |  | 55.8
12 | COc1cc2c(O)c3c(c(-c4ccc5c(c4)OCO5)c2cc1OC)C(=O)OC3 [Diphyllin (7), diphyllin, reference compound] | 176 |  | 842
